Data from patent US10039812B2, “Therapeutic for treating clostridium difficile infection” (priority 2012, dated 2018).

Test system: C. difficile strain 630Δerm
Assay: Inhibition of biofilm formation in TC flasks
Conditions: 10 μg/ml added prior to inoculation; 6 day incubation, static and shaking

B1: proteinase K: a proteinase used to digest biofilm constituents (protein, UniProt P06873 106-384, looked up)
Proteinase K: AAQTNAPWGLARISSTSPGTSTYYYDESAGQGSCVYVIDTGIEASHPEFEGRAQMVKTYYYSSRDGNGHGTHCAGTVGSRTYGVAKKTQLFGVKVLDDNGSGQYSTIIAGMDFVASDKNNRNCPKGVVASLSLGGGYSSSVNSAAARLQSSGVMVAVAAGNNNADARNYSPASEPSVCTVGASDRYDRRSSFSNYGSVLDIFGPGTSILSTWIGGSTRSISGTSMATPHVAGLAAYLMTLGKTTAASACRYIADTANKGDLSNIPFGTVNLLAYNNYQA
  Biofilm formation (flocs or aggregates): appeared smaller in the case of the aggregates and less dense in the case of the floc
